A mixed list of measured activities; the numbers were collected in NIAID ChemDB.

Common to all: cytotoxicity tests; cells: MDCK; read-out: CC50

CCn is the concentration with n% toxicity to the cells.

compound,method,value
CC#Cc1cn([C@@H]2O[C@H](COP(=O)(O)OCC(F)(F)F)[C@@H](O)[C@@H]2O)c(=O)[nH]c1=O,,>250 µM
COc1cc(NC(=O)Nc2cccc(CNC(=O)O[C@H]3CCOC3)c2)ccc1-c1cnco1,MTT,4.8 µM
O=C1C[C@@H](c2ccc(O)cc2)Oc2cc(O)c(-c3c(O)cc4c(c3O)C(=O)C[C@@H](c3ccc(O)cc3)O4)c(O)c21,visual reading,12 µg/mL
COc1cc(Cl)nc(NC(=O)NC(=O)c2c(F)cccc2F)n1,MTS,>300 µM
CCCN(CCC)c1c([N+](=O)[O-])cc(C(F)(F)F)cc1[N+](=O)[O-],,>5 µM
O=C(NCCc1c[nH]c2ccccc12)C1=Cc2ccncc2CC1,,46 µM
COc1cc(O)c(CC=C(C)C)c(O)c1C(=O)/C=C/c1ccc(O)cc1,,6.5 µg/mL
CCOC(=O)C1=C[C@@H](OC2CCCCC2)[C@H](NC(C)=O)[C@@H](N)C1,MTS,>100 µM
CC1(C)C2CC[C@]3(C)C(CC=C4C5C[C@@](C)(C(=O)O)CC[C@]5(C)CC[C@]43C)[C@@]2(C)CC[C@@H]1O[C@@H]1O[C@H](C(=O)O)[C@@H](O)[C@H](O)[C@H]1O[C@@H]1OC(C(=O)O)[C@@H](O)[C@H](O)[C@H]1O,ATP,>100 µM
CCOc1cc(OCC)n2sc(=NC(=O)c3ccc(-c4ccc([N+](=O)[O-])cc4)o3)nc2n1,MTS,>300 µM
CC#Cc1cn([C@@H]2O[C@H](CO)[C@@H](O)[C@@H]2O)c(=O)[nH]c1=O,,>500 µM
CCOc1cc(Cl)nc(NC(=S)NC(=O)c2ccc(-c3ccccc3Cl)o2)n1,MTS,>300 µM
Cc1cn([C@@H]2C[C@@H](O)[C@H](CO)O2)c(=O)[nH]c1=O,,>100 µM
NC(=O)c1nc(F)c[nH]c1=O,,>6370 µM
CC(=O)O[C@H]1C[C@](C)(C(=O)O)CC2C3=CC(=O)C4[C@@]5(C)CC[C@H](O[C@@H]6O[C@H](C(=O)O)[C@@H](O)[C@H](O)[C@H]6O[C@@H]6O[C@H](C(=O)O)[C@@H](O)[C@H](O)[C@H]6O)C(C)(C)C5CC[C@@]4(C)[C@]3(C)CC[C@]21C,ATP,>100 µM
C[C@@H](O)C1=C[C@@H](n2cnc3c(N)ncnc32)[C@H](O)[C@@H]1O,MTT / neutral red,7.3 µg/mL
CC#Cc1cn([C@@H]2O[C@H](COP(=O)(O)OCC)[C@@H](O)[C@@H]2O)c(=O)[nH]c1=O,,>250 µM
NC12CC3CC(CC(C3)C1)C2,,40–1000 µM
CC#Cc1cn([C@@H]2O[C@H](COP(=O)(O)Oc3cccc(Cl)c3)[C@@H](O)[C@@H]2O)c(=O)[nH]c1=O,,79 µM
COc1cc(Cl)nc(NC(=S)NC(=O)c2ccc(-c3ccccc3Cl)o2)n1,MTS,>300 µM
CO[C@@H]1[C@@H](OC)[C@H](C)[C@@](O)(CC(=O)O)O[C@H]1[C@H](C)[C@H]1O[C@@]2(CC[C@@](C)([C@H]3CC[C@@](C)([C@@H]4O[C@@H]([C@H]5O[C@](C)(O)[C@H](C)C[C@@H]5C)C[C@@H]4O[C@@H]4C[C@H](OC)[C@@H](OC)[C@H](C)O4)O3)O2)C[C@H](O)[C@H]1C,,>10 µM
CC#Cc1cn([C@@H]2O[C@H](COP(=O)(O)Oc3ccccc3)[C@@H](O)[C@@H]2O)c(=O)[nH]c1=O,,>500 µM
CCOc1cc(OCC)nc(NC(=S)NC(=O)[C@H](c2ccc(Cl)cc2)C(C)C)n1,MTS,>300 µM
C1CCC(C2C3CC4CC(C3)CC2C4)NC1,,≥977 µM
Nc1ccn([C@@H]2C[C@@H](O)[C@H](CO)O2)c(=O)n1,,>100 µM
CC(C)[C@H](C(=O)NC(=S)NC(=O)NC(C)(C)C)c1ccc(Cl)cc1,MTS,>300 µM
NC(=O)c1nc(F)c[nH]c1=O,,>1000 µg/mL

For reference, 2 entries again:

{"compound": "CC#Cc1cn([C@@H]2O[C@H](COP(=O)(O)Oc3cccc(Cl)c3)[C@@H](O)[C@@H]2O)c(=O)[nH]c1=O", "value": "79 µM"}
{"compound": "Nc1ccn([C@@H]2C[C@@H](O)[C@H](CO)O2)c(=O)n1", "value": ">100 µM"}

Neighbouring rows are from separate reports. a–b is a range or a potency band. An empty or dashed field is not shown.